Results deposited as PubChem BioAssay AID1259414 (Drosophila RNAi Screening Center, 2018)

- Aim: 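Fly genes that alter Wolbachia amount inside host cells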 (primary screen)
- Cell system: Drosophila JW18 cells infected with Wolbachia
- Reagents: long dsRNA against Drosophila genes, 0.25 µg dsRNA per well of a 384-well plate
- Duration: 5 days
- Treatment: cells persistently infected with Wolbachia before knock-down; no added drug
- Read-out: 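Automated imaging of bacterial rRNA staining divided by host cell count, reported as plate-normalised robust z-score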
- Reading the numbers: Wolbachia per cell robust z: higher = more Wolbachia per host cell than the plate typical
- Hit rule: 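Active if absolute robust z reaches 1.5 in two or more of three replicates, leaving out multi- or no-target dsRNAs, genes unexpressed in JW18 and A1 wells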
The screen tested about 24,000 reagents; below is an unselected part of those that have a named target and a result. Over the whole deposit, about 1,210 (5%) are marked active. 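Inactive calls also include excluded dsRNAs with several or no targets, genes unexpressed in JW18, and well A1, regardless of score.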 The numbers tell different reagents against one gene apart. Names joined by + are all predicted targets of the reagent.

gene knocked down | reagent no. | Wolbachia per cell robust z, rep 1 | Wolbachia per cell robust z, rep 2 | Wolbachia per cell robust z, rep 3 | call
CG7849 | 1 | 1.39 | 0.465 | 0.219 | inactive
CG7849 | 2 | -0.332 | 0.405 | 0.257 | inactive
CG30280 | 1 | 0.157 | -0.732 | 0.311 | inactive
p | 1 | 0.505 | -0.556 | 0.762 | inactive
p | 2 | 0.705 | 0.595 | 0.924 | inactive
CG3176 + CR18166 + CG32817 | 1 | 0.147 | 1.03 | 0.693 | inactive
CG3176 + CR18166 + CG32817 | 2 | 0.991 | -0.167 | 0.205 | inactive
UBL3 | 1 | -0.185 | 0.373 | -1.92 | inactive
toc | 1 | -0.0871 | 0.0816 | 0.556 | inactive
toc | 2 | -1.66 | -1.52 | -2.46 | active
toc | 3 | -2.06 | -0.661 | -0.321 | inactive
toc | 4 | -0.314 | -0.762 | -0.264 | inactive
CG13041 | 1 | -2.7 | -1.73 | -0.223 | inactive
CG13041 | 2 | -0.27 | 1.26 | -0.541 | inactive
CG43755 | 1 | 0.249 | -0.146 | 0.206 | inactive
CG43755 | 2 | 0.263 | -1.82 | -0.327 | inactive
CG43755 | 3 | 1.16 | 0.158 | -0.384 | inactive

The list goes on (4 carried over from the part before).
gene knocked down | reagent no. | Wolbachia per cell robust z, rep 1 | Wolbachia per cell robust z, rep 2 | Wolbachia per cell robust z, rep 3 | call
CG13041 | 2 | -0.27 | 1.26 | -0.541 | inactive
CG43755 | 1 | 0.249 | -0.146 | 0.206 | inactive
CG43755 | 2 | 0.263 | -1.82 | -0.327 | inactive
CG43755 | 3 | 1.16 | 0.158 | -0.384 | inactive
CG9164 | 1 | 0.639 | -0.0624 | -0.377 | inactive
CG9164 | 2 | -0.974 | -9.39 | 0.603 | inactive
CG9164 | 3 | -9.25 | -0.478 | -1.2 | inactive
Mst98Cb | 1 | -2.36 | 0.476 | 0.646 | inactive
Mst98Cb | 2 | -0.0211 | 0.253 | 0.127 | inactive
Mst98Cb | 3 | -0.53 | 0.59 | 0.205 | inactive
CG12708 | 1 | 0.321 | -1.36 | -1.34 | inactive
chp | 1 | -0.657 | 0.325 | -7.48 | inactive
chp | 2 | -2.24 | -1.1 | 0.0223 | inactive
Ir7d | 1 | 0.216 | -0.566 | -3.07 | inactive
Fmr1 | 1 | 0.708 | -2.82 | 0.45 | inactive
Fmr1 | 2 | -7.74 | 1.13 | 1.91 | inactive
